Source: US20120129928A1, “Chlorine-Free Liquid Microbicide Treatment” (University of Georgia Research Foundation, Inc., priority 2010, published 2012)
Where “and” joins values, the source holds several entries; their conditions need not be identical. Equal values may be shown once.

How the values were obtained:
E. coli O157:H7 = conditions: sulfate
S. typhimurium = S. typhimurium counts on produce (apples, celery, onions, cantaloupes) and in treatment solution, 4-L tank; conditions: Example 27, treatment time 2 min

Compound	E. coli O157:H7 counts (E. coli O157:H7)	average S. typhimurium count on cantaloupes (S. typhimurium) [log CFU/cantaloupe]	average reduction of S. typhimurium on cantaloupes (S. typhimurium) [log CFU/cantaloupe]
CCCCCCCCCCCCOS(=O)(=O)[O-].[Na+] [SDS, sodium dodecyl sulfate]	7.1 log CFU/ml and 6.9 log CFU/ml and 7.0 log CFU/ml		
acidified sodium chlorite [50 ppm acidified sodium chlorite]		3.43	0.19
